Results of unrelated studies side by side (data: NIAID ChemDB).

Shared fields: cytotoxicity tests; cell line: HeLa; measure: CC50

An empty or dashed field is not shown. CCn: concentration that lowers growth or viability of the cells by n%. Conditions beyond the fields shown may differ between rows.

structure,read by,result
NC(=O)CCNC[C@H](Cc1ccc(O)cc1)NC[C@H](Cc1ccc(O)cc1)NC[C@H](Cc1ccc(O)cc1)NC[C@H](Cc1ccc(O)cc1)NC[C@H](Cc1ccc(O)cc1)NC[C@@H](N)Cc1ccc(O)cc1,MTS,>100 µM
CN(C)c1ccc(Cc2ccc(S(C)(=O)=O)cn2)cc1,,>10 µg/mL
CCOc1ncn(-c2ccc(NC(=S)Nc3ncccn3)cc2)n1,,40 µg/mL
CCCCCCCC(=O)O[C@H]1[C@H](O)[C@H](n2ccc(N)nc2=O)O[C@@H]1CO,neutral red,0.09 µg/mL
C[C@@H]1CN(C(=O)c2ccccc2)CCN1C(=O)C(=O)c1c[nH]c2c(-n3cccn3)ncc(Br)c12,trypan blue,>100 µM
CCOC(=O)c1ccc(CO/N=C2\CC[C@]3(C)[C@H]4C(=O)C=C5[C@@H]6C[C@@](C)(C(=O)OCC)CC[C@]6(C)CC[C@@]5(C)[C@]4(C)CC[C@H]3C2(C)C)o1,MTT,67.36 µM
CCCOc1ncn(-c2ccc(NC(=S)NC34CC5CC(CC(C5)C3)C4)cc2)n1,,20 µg/mL
CC(=O)Nc1cc(=O)n(O)c2ncccc12,,<100 µM
CCS(=O)(=O)c1ccc(NCc2ccc(Cl)c(Cl)c2)nc1,,>10 µg/mL
COc1ncc(OC)c2c(C(=O)C(=O)N3CCN(C(=O)c4ccccc4)CC3)c[nH]c12,trypan blue,>100 µM
CCC1CN(C(=O)c2ccccc2)CCN1C(=O)C(=O)c1c[nH]c2cccc(F)c12,XTT,157 µM
CCOC(=O)c1c(-c2ccc(-c3ccc(CN)cc3)cc2)c2cccnc2n(O)c1=O,,<100 µM
Cc1ccc(C(=O)CCCCOc2ccc(C(=O)O)cc2)s1,,>314 µM
O=C1O/C(=C\Cn2cnc3c(Cl)ncnc32)C(OCc2ccc([N+](=O)[O-])cc2)=C1OCc1ccc([N+](=O)[O-])cc1,,16.97 µM
CCCOc1ncn(-c2ccc(NC(=S)Nc3cnccn3)cc2)n1,,100 µg/mL
N#Cc1cc(NC(=O)c2ccccc2)c(=O)n2c1[nH]c1ccccc12,,4.8 µg/mL
CCOc1ncn(-c2ccc(NC(=S)Nc3cccc(O)c3)cc2)n1,,40 µg/mL
CCNC(=O)c1ncn(-c2ncc(OC)c3c(C(=O)C(=O)N4CCN(C(=O)c5ccccc5)CC4)c[nH]c23)n1,trypan blue,>100 µM
CCCCCCCCCC(C)=O,trypan blue,42 µg/mL
NCc1ccc(-c2ccc3c(c2)CN(c2cc(=O)n(O)c4ncccc24)C3)cc1,,0.35 µM
CCS(=O)(=O)c1ccc(Cc2ccc(Cl)c(Cl)c2)nc1,,>10 µg/mL
CCOC(=O)[C@@]1(C)CC[C@]2(C)CC[C@]3(C)C(=CC(=O)[C@@H]4[C@@]5(C)CC/C(=N\OCc6ccc(C(=O)OC)o6)C(C)(C)[C@@H]5CC[C@]43C)[C@@H]2C1,MTT,20.53 µM
COc1ccc(-c2oc3cc(OC)cc(O)c3c(=O)c2OC)cc1,,107 µg/mL
CC(C)C1CN(C(=O)C(=O)c2c[nH]c3cccc(F)c23)CCN1C(=O)c1ccccc1,XTT,130 µM
COC1=C(OC)/C(=C/C(n2cnc3c(Cl)ncnc32)P(=O)(OC)OC)OC1=O,,28.14 µM
CSc1noc(-c2ccc(OCCOc3ccc([N+](=O)[O-])cc3)cc2)c1C#N,,10 µM
CCOC(=O)[C@@]1(C)CC[C@]2(C)CC[C@]3(C)C(=CC(=O)[C@@H]4[C@@]5(C)CC/C(=N\OCc6cccc7ccccc67)C(C)(C)[C@@H]5CC[C@]43C)[C@@H]2C1,MTT,>100 µM
CN(C(=O)c1c(O)c2cccnc2n(O)c1=O)C1CCN(C(=O)OC(C)(C)C)C1,,<100 µM
CC1CN(C(=O)C(=O)c2c[nH]c3cccc(F)c23)CC(C)N1C(=O)c1ccccc1,XTT,200 µM
Cc1cc(CCCOc2c(C)cc(-c3noc(C(F)(F)F)n3)cc2C)on1,,77 µM
CSc1noc(-c2ccc(OCCc3ccccc3)cc2)c1C#N,,>20 µM
COC1=C(OC)/C(=C/Cn2cnc3c(N)ncnc32)OC1=O,,42.35 µM
NC(=O)CCNC[C@H](Cc1ccc(O)cc1)NC[C@H](Cc1ccc(O)cc1)NC[C@H](Cc1ccc(O)cc1)NC[C@@H](N)Cc1ccc(O)cc1,MTS,>100 µM
CCCOc1ncn(-c2ccc(NC(=S)Nc3ncccn3)cc2)n1,,40 µg/mL
CS(=O)(=O)c1ccc(Cc2ccc(N)cc2)nc1,,>10 µg/mL
COc1ccc(-c2cc(=O)c3c(O)cc(OC)cc3o2)cc1,,106 µg/mL
CCOC(=O)[C@@]1(C)CC[C@]2(C)CC[C@]3(C)C(=CC(=O)[C@@H]4[C@@]5(C)CC/C(=N\OCc6ccc(C#N)cc6)C(C)(C)[C@@H]5CC[C@]43C)[C@@H]2C1,MTT,>100 µM
CCS(=O)(=O)c1ccc(NCc2ccc(Cl)c(Cl)c2)nc1C#N,,>10 µg/mL
C[C@@H]1CN(C(=O)C(=O)c2c[nH]c3c(-n4ccnn4)ncc(F)c23)CCN1C(=O)c1ccccc1,trypan blue,>100 µM
CCOC(=O)c1ccc(OCCCCC(=O)c2cc[nH]c2)cc1,,>317 µM
CCOC(=O)c1cc(C#N)c2[nH]c3ccccc3n2c1=O,,175 µg/mL
CCCCCCCCCC(=O)O[C@@H]1[C@@H]2Oc3nc(=N)ccn3[C@@H]2O[C@@H]1CO,neutral red,0.2 µg/mL
CS(=O)(=O)c1ccc(Cc2ccc(Br)cc2)nc1,,>10 µg/mL
c1ccn(CCCCCOc2ccc(C3=NCCO3)cc2)c1,,159 µM
COc1cnc(-n2nccn2)c2[nH]cc(C(=O)C(=O)N3CCN(C(=O)c4ccccc4)[C@H](C)C3)c12,trypan blue,>100 µM
O=c1cc(-c2ccc3ncccc3c2)c2cccnc2n1O,,<100 µM
CSc1noc(-c2ccc(OCCOc3ccccc3)cc2)c1C#N,,>25 µM
CCOC(=O)[C@@]1(C)CC[C@]2(C)CC[C@]3(C)C(=CC(=O)[C@@H]4[C@@]5(C)CC/C(=N\OCc6ccccc6Cl)C(C)(C)[C@@H]5CC[C@]43C)[C@@H]2C1,MTT,46.4 µM
O=C(CCCCOc1ccc(C2=NCCO2)cc1)c1cc[nH]c1,,>320 µM
COc1cnc(-c2nccs2)c2[nH]cc(C(=O)C(=O)N3CCN(C(=O)c4ccccc4)CC3)c12,trypan blue,>100 µM
COc1ccc(CNc2ccc(S(C)(=O)=O)cn2)cc1OC,,>10 µg/mL
CCOC(=O)c1ccc(OCCCCC(=O)c2ccc(Cl)s2)cc1,,>273 µM
CCCC1CN(C(=O)C(=O)c2c[nH]c3cccc(F)c23)CCN1C(=O)c1ccccc1,XTT,100 µM
O=C(Nc1cccnc1)c1c(O)c2cccnc2n(O)c1=O,,<100 µM
CCOC(=O)c1ccc(OCCCCC(=O)c2ccc(C)s2)cc1,,>289 µM

For reference, 3 entries again:

structure | read by | result
CCOC(=O)c1ccc(OCCCCC(=O)c2ccc(C)s2)cc1 |  | >289 µM
O=c1cc(-c2ccc3ncccc3c2)c2cccnc2n1O |  | <100 µM
CCCCCCCCCC(=O)O[C@@H]1[C@@H]2Oc3nc(=N)ccn3[C@@H]2O[C@@H]1CO | neutral red | 0.2 µg/mL